Measured values as given in PMC5440694 (Nature Communications, 2017).
Numbering of substitutions follows the chain as printed. Read-outs that look alike come from different tables or passages of the source.

B1: wild-type C05 Fab (VVSAGW), expressed in insect cells (Fab, V domains shown)
VH: QVQLQESGGGLVQPGESLRLSCVGSGSSFGESTLSYYAVSWVRQAPGKGLEWLSIINAGGGDIDYADSVEGRFTISRDNSKETLYLQMTNLRVEDTGVYYCAKHMSMQQVVSAGWERADLVGDAFDVWGQGTMVTVSS
VL: DIQLTQSPSSLSASVGDRVTLTCQASQDIRKFLNWYQQKPGKGPKLLIYDASNLQRGVPSRFSGGGSGTDFTLIISSLQPEDVGTYYCQQYDGLPFTFGGGTKVVIK
B2: C05 Fab variant VPGSGW, expressed in insect cells (Fab, V domains shown)
VH: B1 VH with V111P, S112G, A113S
VL: B1 VL
B3: C05 Fab variant VVSSGW, expressed in insect cells (Fab, V domains shown)
VH: B1 VH with A113S
VL: B1 VL
B4: C05 Fab variant VTGSGW, expressed in insect cells (Fab, V domains shown)
VH: B1 VH with V111T, S112G, A113S
VL: B1 VL

Key:
[1] = target: biotinylated HA0 ectodomain of A/WSN/1933 (H1N1) (Influenza A virus A/WSN/1933 (H1N1), UniProt I4EPC4, biotin on the BirA biotinylation site); assay: BLI; conditions: both partners purified
[2] = target: biotinylated HA0 ectodomain of A/Hong Kong/1/1968 (H3N2) (Influenza A virus A/Hong Kong/1/1968 …, UniProt Q91MA7, biotin on the BirA biotinylation site); conditions: both partners purified
[3] = target: biotinylated HA0 ectodomain of A/Japan/305/1957 (H2N2) (Influenza A virus A/Japan/305/1957 …, UniProt P03451, biotin on the BirA biotinylation site)
[4] = target: HA1 (H3 numbering: residues 43-309) from A/Hong Kong/1/1968 (HK68/H3) (Influenza A virus A/Hong Kong/1/1968 …, strain); assay: crystal structure

| Binder | Kd [1] [nM] | Kd [2] [nM] | Kd ([3]; both partners purified) [nM] | binding result [4] | Kd [3] [nM] |
| --- | --- | --- | --- | --- | --- |
| B1 | 169.4 ± 1 | 328 ± 12 | 1700 ± 46 | – | – |
| B2 | – | – | – | binds | – |
| B3 | 728 ± 20.5 | – | – | – | > 5000 |
| B4 | 1540 ± 42 | – | – | – | > 5000 |
